Fitness effects across NS2B and the NS3 protease domain of Zika virus

Values reported by Ni et al. 2025 (doi:10.1038/s41467-025-63602-z).

Protein: NS2B and the protease part of NS3 of Zika virus strain MR766. Positions count along the chain below; NS2B spans 2-131 and NS3 starts at 132.
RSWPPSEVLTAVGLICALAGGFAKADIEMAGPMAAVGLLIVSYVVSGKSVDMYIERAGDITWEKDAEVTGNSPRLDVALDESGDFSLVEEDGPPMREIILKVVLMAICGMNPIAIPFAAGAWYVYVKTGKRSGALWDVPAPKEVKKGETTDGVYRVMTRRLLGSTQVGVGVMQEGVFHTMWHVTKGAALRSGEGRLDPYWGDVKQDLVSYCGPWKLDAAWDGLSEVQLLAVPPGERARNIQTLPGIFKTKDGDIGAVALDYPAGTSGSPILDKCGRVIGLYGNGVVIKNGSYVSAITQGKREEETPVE

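Libraries of single mutants were passaged as virus pools on Huh-7.5 cells. The effect is the change in frequency of a mutant, normalised to wild type, as a mean of three replicate libraries (two for positions 207-308). The study looked for pockets that tolerate few changes, as a guide for inhibitor design.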

Values are log2 effects on growth: 0 is wild type, lower means poorer growth. Substitutions are written as wild-type residue, site number, new residue. All changes here are to glutamine.

| substitution | effect (log2) |
|---|---|
| D65Q | -5.99 |
| A66Q | -6.44 |
| E67Q | -2.29 |
| V68Q | -5.90 |
| T69Q | -6.50 |
| G70Q | -5.96 |
| N71Q | -5.69 |
| S72Q | -5.57 |
| P73Q | -5.98 |
| R74Q | -1.00 |
| L75Q | -7.35 |
| D76Q | -0.55 |
| V77Q | -6.00 |
| A78Q | 0.62 |
| L79Q | -4.95 |
| D80Q | -5.92 |
| E81Q | -6.50 |
| S82Q | -2.33 |
| G83Q | -6.03 |
| D84Q | -5.92 |
| F85Q | -5.51 |
| S86Q | -2.68 |
| L87Q | -6.72 |
| V88Q | -4.19 |
| E89Q | -1.44 |
| E90Q | 0.00 |
| D91Q | -1.59 |
| G92Q | -4.33 |
| P93Q | -3.50 |
| P94Q | -1.52 |
| M95Q | -5.96 |
| R96Q | -2.54 |
| E97Q | -1.32 |
| I98Q | -5.37 |
| I99Q | -5.59 |
| L100Q | -5.64 |
| K101Q | -6.56 |
| V102Q | -6.85 |
| V103Q | -5.27 |
| L104Q | -6.82 |
| M105Q | -6.10 |
| A106Q | -5.77 |
| I107Q | -5.12 |
| C108Q | -5.87 |
| G109Q | -4.45 |
| M110Q | -1.69 |
| N111Q | -1.16 |
| P112Q | -3.98 |
| I113Q | -5.38 |
| A114Q | -6.19 |
| I115Q | -5.55 |
| P116Q | -6.57 |
| F117Q | -5.46 |
| A118Q | -5.69 |
| A119Q | -5.17 |
| G120Q | -6.13 |
| A121Q | -6.13 |
| W122Q | -5.99 |
| Y123Q | -2.61 |
| V124Q | -5.75 |
| Y125Q | -5.94 |
| V126Q | -0.12 |
| K127Q | -3.32 |
| T128Q | -0.67 |
| G129Q | -5.80 |
| K130Q | -5.96 |
| R131Q | -6.05 |
| S132Q | -5.52 |
| G133Q | -5.49 |
| A134Q | -5.49 |
| L135Q | -6.97 |
| W136Q | -6.67 |

The first 10 entries again:

substitution	effect (log2)
D65Q	-5.99
A66Q	-6.44
E67Q	-2.29
V68Q	-5.90
T69Q	-6.50
G70Q	-5.96
N71Q	-5.69
S72Q	-5.57
P73Q	-5.98
R74Q	-1.00

The authors count -1 or higher as tolerated. Position 1 is the last residue of NS2A. Six mutants with high scores were retested singly and none clearly outgrew wild type, so positive values are not proof of better growth. Positions 1-103, 104-206 and 207-308 were made and measured as separate libraries.